Compound potency records, mixed from different reports. Data source: NIAID ChemDB in PubChem.

Common to all: target-level tests; agent: HIV-1; target: Reverse transcriptase

Rows are shuffled and stem from different studies.

| smiles | endpoint | changes | strain | method | result |
|---|---|---|---|---|---|
| CC(C)=CCc1c(O[C@@H]2O[C@H](CO)[C@@H](O)[C@H](O)[C@H]2O)cc2c(c1O)C(=O)[C@H](O)[C@@H](c1ccc(O)c(O)c1)O2 | IC50 | - | - | nucleotide incorporation / radiometric | >200 µg/mL |
| CCN1c2ncc(CCOc3ccc(CCC(=O)O)c4c3CCCC4)cc2C(=O)N(C)c2ccc(Cl)nc21 | IC50 | RT-K103N Y181C | - | nucleotide incorporation / radiometric | 0.1–1 µM |
| Cc1cc(C)c(-n2nnnc2SCC(=O)Nc2ccc(F)cc2F)c(C)c1 | IC50 | - | - | nucleotide incorporation / radiometric | <2 µM |
| O=C(NCc1cccc(CO)c1)c1[nH]c2ccc(Cl)cc2c1Sc1ccccc1 | IC50 | - | - | nucleotide incorporation | 0.003–0.035 µM |
| Cc1nnc2ccc(N3CCc4ccccc4C3)nn12 | IC90 | - | KER2008 | RT activity / fluorescence | 25.9 µM |
| Cc1cc(C)c(-n2nnnc2SCC(=O)Nc2ccc(S(N)(=O)=O)cc2C)c(C)c1 | IC50 | - | - | nucleotide incorporation / radiometric | <2 µM |
| CCOC(=O)COc1ccc2[nH]c(C(=O)N3CCN(c4ncccc4NC(C)C)CC3)cc2c1 | IC50 | - | - | nucleotide incorporation | <100 µM |
| N#Cc1ccc(NC(=O)Cc2ccc(Oc3cc(C#N)cc(C#N)c3)c(Cl)c2)cc1 | IC50 | - | - | nucleotide incorporation / radiometric | 10 µM |
| COc1ccc(-c2coc3cc4c(c(OC)c3c2=O)OCO4)cc1OC | IC50 | - | - | nucleotide incorporation / radiometric | >200 µg/mL |
| CCN1c2ncc(CCOc3ccc(CC(=O)O)c4ccccc34)cc2C(=O)Nc2c(C)cc(Cl)nc21 | IC50 | RT-Y188L | - | nucleotide incorporation / radiometric | >1 µM |
| CCNc1cccnc1N1CCN(C(=O)c2cc3ccccc3[nH]2)CC1 | IC50 | - | - | nucleotide incorporation | <100 µM |
| CC(C)=CCOc1cc(NC(=S)c2ccoc2C)ccc1Cl | IC50 | RT-E138K | - | - | 2.1 µM |
| O=C(NCc1cccnc1)c1[nH]c2ccc(Cl)cc2c1S(=O)(=O)c1ccccc1 | IC50 | - | - | nucleotide incorporation | 0.003–0.035 µM |
| CC(C)Nc1cccnc1N1CCCN(C(=O)c2cc3cc(F)ccc3[nH]2)CC1 | IC50 | - | - | nucleotide incorporation | <100 µM |
| CCN1c2ncc(CCOc3ccc(NC(=O)CCC(=O)O)c4ccccc34)cc2C(=O)N(C)c2cccnc21 | IC50 | RT-Y188L | - | nucleotide incorporation / radiometric | >1 µM |
| COCC(C)Nc1cccnc1N1CCN(C(=O)c2cc3cc(F)ccc3[nH]2)CC1 | IC50 | - | - | nucleotide incorporation | <100 µM |
| CCN1c2ncc(CCOc3ccc4cc(CC(=O)NN)ccc4c3)cc2C(=O)N(C)c2cccnc21 | IC50 | RT-K103N Y181C | - | nucleotide incorporation / radiometric | 0.1–1 µM |
| COc1cccc(S(=O)(=O)n2c(=O)[nH]c3ccc(Cl)cc32)c1 | IC50 | K103N | - | nucleotide incorporation | 10 µM |
| COP(=O)(c1cc(C)cc(CCC#N)c1)c1c(C(N)=O)[nH]c2ccc(Cl)cc12 | IC50 | K103N | - | RT activity | 2.203 µM |
| CCNc1cccnc1N1CCN(C(=O)c2cc3ccc(OC)c(C)c3[nH]2)CC1 | IC50 | - | - | nucleotide incorporation | <100 µM |
| Cc1cc(C)c(-n2nnnc2SCC(=O)Nc2cccc(Br)n2)c(C)c1 | IC50 | - | - | nucleotide incorporation / radiometric | <2 µM |
| c1ccc2c(c1)CN(c1nn3c(C4CC4)nnc3c3ccccc13)C2 | IC90 | - | 98US_MSC5016 | RT activity / fluorescence | >100 µM |
| CCN1c2ncc(CCOc3ccc(C(=O)O)c4c3CCC4)cc2C(=O)N(C)c2cccnc21 | IC50 | RT-Y188L | - | nucleotide incorporation / radiometric | >1 µM |
| Nc1ccn([C@@H]2O[C@H](COP(=O)(O)O[C@@H]3[C@H](O)[C@@H](COP(=O)(O)O[C@@H]4[C@H](O)[C@@H](COP(=O)(O)O)O[C@H]4n4ccc(N)nc4=O)O[C@H]3n3ccc(N)nc3=O)[C@@H](O)[C@H]2O)c(=O)n1 | IC50 | - | - | nucleotide incorporation / radiometric | 290 µM |
| Cc1ccccc1-n1nnnc1SCC(=O)Nc1ccccc1Cl | IC50 | - | - | nucleotide incorporation / radiometric | <2 µM |
| COCCNC(=O)c1[nH]c2ccc(Cl)cc2c1Sc1ccccc1 | IC50 | - | - | nucleotide incorporation | 0.003–0.035 µM |
| Nc1ccn([C@@H]2O[C@H](COP(=O)(O)O[C@@H]3[C@H](O)[C@@H](COP(=O)(O)O[C@@H]4[C@H](O)[C@@H](CO)O[C@H]4n4ccc(N)nc4=O)O[C@H]3n3ccc(N)nc3=O)[C@@H](O)[C@H]2O)c(=O)n1 | IC50 | - | - | nucleotide incorporation / radiometric | >400 µM |
| Nc1nc2c(ncn2[C@H]2CC[C@@H](COP(=O)(O)OP(=O)(O)OP(=O)(O)O)O2)c(=O)[nH]1 | IC50 | RT-Y181C | - | nucleotide incorporation | 0.15 µM |
| CCCNc1cccnc1N1CCN(C(=O)c2cc3cc(F)ccc3[nH]2)CC1 | IC50 | - | - | nucleotide incorporation | <100 µM |
| Cc1cc(C#N)ccc1Oc1ccc(CC(=O)Nc2ccc(S(N)(=O)=O)cc2)cc1Cl | IC50 | - | - | nucleotide incorporation / radiometric | 100 µM |
| Nc1cc(CNC(=O)c2[nH]c3ccc(Cl)cc3c2S(=O)(=O)c2ccccc2)ccn1 | IC50 | - | - | nucleotide incorporation | 0.003–0.035 µM |
| Nc1ccn([C@@H]2O[C@H](COP(=O)(O)O[C@@H]3[C@H](O)[C@@H](COP(=O)(O)O[C@@H]4[C@H](O)[C@@H](COP(=O)(O)OP(=O)(O)OP(=O)(O)O)O[C@H]4n4ccc(N)nc4=O)O[C@H]3n3ccc(N)nc3=O)[C@@H](O)[C@H]2O)c(=O)n1 | IC50 | - | - | nucleotide incorporation / radiometric | 132 µM |
| Cc1ccccc1NC(=O)Cc1ccc(Oc2cc(C#N)cc(C#N)c2)c(Cl)c1 | IC50 | - | - | nucleotide incorporation / radiometric | 100 µM |
| NC(=O)c1[nH]c2ccc(Cl)cc2c1S(=O)c1ccccc1 | IC50 | - | - | nucleotide incorporation | 0.003–0.035 µM |
| N#Cc1cc(C#N)cc(Oc2ccc(CC(=O)Nc3ccc(S(N)(=O)=O)cc3)cc2F)c1 | IC50 | - | - | nucleotide incorporation / radiometric | 100 µM |
| COc1cc(CNC(=O)c2[nH]c3ccc(Cl)cc3c2Sc2ccccc2)ccn1 | IC50 | - | - | nucleotide incorporation | 0.003–0.035 µM |
| COc1cc(CC(=O)Nc2ccc(S(N)(=O)=O)cc2)ccc1Oc1cc(Cl)cc(C#N)c1 | IC50 | - | - | nucleotide incorporation / radiometric | 10 µM |
| NC(=O)c1[nH]c2ccc(Cl)cc2c1S(=O)(=O)c1ccccc1 | IC50 | - | - | nucleotide incorporation | 0.003–0.035 µM |
| CC1(C)Oc2ccc3ccc(=O)oc3c2[C@@H](OC(=O)C23CCC(C)(C(=O)O2)C3(C)C)[C@H]1OC(=O)C12CCC(C)(C(=O)O1)C2(C)C | IC50 | - | IIIB | - | >100 µg/mL |
| COC(=O)c1ccc(NC(=O)CSc2nnnn2-c2c(C)cc(C)cc2C)c(Cl)c1 | IC50 | - | - | nucleotide incorporation / radiometric | <2 µM |
| CS(=O)(=O)Nc1ccc2[nH]c(C(N)=O)c(S(=O)(=O)c3ccccc3)c2c1 | IC50 | - | - | nucleotide incorporation | 0.003–0.035 µM |
| N#Cc1ccc2c(c1)CN(c1nn3c(C4CC4)nnc3c3ccccc13)CC2 | IC90 | - | KER2008 | RT activity / fluorescence | 2.99 µM |
| COc1cc(O)c2c(c1)OC(c1ccc(Oc3cc(-c4cc(=O)c5c(O)cc(O)cc5o4)ccc3O)cc1)CC2=O | IC50 | - | - | nucleotide incorporation / radiometric | 2.4 µg/mL |
| CC(C)Nc1cccnc1N(C)CCCCN(C)C(=O)c1cc2ccccc2[nH]1 | IC50 | - | - | nucleotide incorporation | <100 µM |
| N#Cc1cc(C#N)cc(Oc2ccc(CC(=O)Nc3ccc(S(=O)(=O)N4CCOCC4)cc3)cc2Cl)c1 | IC50 | - | - | nucleotide incorporation / radiometric | 100 µM |
| CC(=O)c1ccc(NC(=O)CSc2nnnn2-c2c(C)cc(C)cc2C)cc1 | IC50 | - | - | nucleotide incorporation / radiometric | <2 µM |
| CC(C)Nc1cccnc1N1CCN(C(=O)c2cc3cccc(/C(O)=C/C(=O)C(=O)O)c3[nH]2)CC1 | IC50 | - | - | nucleotide incorporation | >100 µM |
| O=C(CSc1nnnn1-c1ccccc1Br)Nc1ccccc1[N+](=O)[O-] | IC50 | - | - | nucleotide incorporation / radiometric | <2 µM |
| CCN1c2ncc(CCOc3ccc(C(=O)O)c4c3CCCC4)cc2C(=O)N(C)c2ccc(F)nc21 | IC50 | RT-V106A | - | nucleotide incorporation / radiometric | >1 µM |
| Cc1c(N2CCc3ccccc3C2)nn2c(C)nnc2c1C | IC50 | - | KER2008 | RT activity / fluorescence | 28.4 µM |
| CC(C)=CCOc1cc(NC(=S)c2ccsc2C)ccc1Cl | IC50 | RT-Y188L | - | - | 35 µM |
| N#Cc1cc(C#N)cc(Oc2ccc(CC(=O)Nc3ccccc3C#N)cc2Cl)c1 | IC50 | - | - | nucleotide incorporation / radiometric | 10 µM |
| CN(C)c1nc(N)nc2c1ncn2[C@H]1C[C@H](N=[N+]=[N-])[C@@H](CO)O1 | IC50 | A62V V75I F77L F116Y Q151M | - | nucleotide incorporation | >50 µM |
| COC(=O)c1ccc(NC(=O)CSc2nnnn2-c2c(C)cc(C)cc2C)c(C)c1 | IC50 | - | - | nucleotide incorporation / radiometric | <2 µM |
| CC(C)Nc1ccnnc1N1CCN(C(=O)c2cc3cc(F)ccc3[nH]2)CC1 | IC50 | - | - | nucleotide incorporation | <100 µM |

The last 4 rows once more:

smiles,endpoint,changes,strain,method,result
N#Cc1cc(C#N)cc(Oc2ccc(CC(=O)Nc3ccccc3C#N)cc2Cl)c1,IC50,-,-,nucleotide incorporation / radiometric,10 µM
CN(C)c1nc(N)nc2c1ncn2[C@H]1C[C@H](N=[N+]=[N-])[C@@H](CO)O1,IC50,A62V V75I F77L F116Y Q151M,-,nucleotide incorporation,>50 µM
COC(=O)c1ccc(NC(=O)CSc2nnnn2-c2c(C)cc(C)cc2C)c(C)c1,IC50,-,-,nucleotide incorporation / radiometric,<2 µM
CC(C)Nc1ccnnc1N1CCN(C(=O)c2cc3cc(F)ccc3[nH]2)CC1,IC50,-,-,nucleotide incorporation,<100 µM

a–b is a range or a potency band. ICn: concentration for n% inhibition. An empty or dashed field is not shown.